A mixed list of measured activities; the numbers were collected in NIAID ChemDB.

Shared fields: whole-cell or culture tests; organism: Bovine viral diarrhea virus; method: cytopathic effect; measure: EC50

Lines come from different laboratories, so protocols vary. ECn: concentration that inhibits the pathogen or its effect by n%. Blank or dashed fields: not listed here.

Cc1ccc(NC(=S)N=Nc2c(O)[nH]c3ccc([N+](=O)[O-])cc23)cc1 ; cells: MDBK ; value: >17 µg/mL
COc1ccc(Cn2ccc3nc(-c4ccccc4)nc-3c2)cc1 ; strain: PE515 ; cells: MDBK ; value: 0.032 µg/mL
Cc1ccc(NC(=S)N=Nc2c(O)n(CN3CCOCC3)c3ccc([N+](=O)[O-])cc23)cc1 ; cells: MDBK ; value: >21 µg/mL
CC(=O)O[C@@H]1[C@H](OC(C)=O)[C@@H](CO)O[C@H]1n1cc(C#CBr)c(=O)[nH]c1=O ; strain: NADL ; cells: MDBK ; value: >100 µM
O=[N+]([O-])c1ccc2c(c1)c(N=NC(=S)Nc1ccccc1)c(O)n2CN1CCOCC1 ; cells: MDBK ; value: >50 µg/mL
O=C(Nc1ccccc1)c1ccc2cccnc2n1 ; strain: NADL ; cells: WST-1 ; value: >8 µM
Clc1cccc(Cn2ccc3nc(-c4ccccc4)nc-3c2)c1 ; strain: PE515 ; cells: MDBK ; value: 0.042 µg/mL
Brc1ccc(Cn2ccc3nc(-c4ccccc4)nc-3c2)cc1 ; strain: NADL (TYPE 1) ; cells: MDBK ; value: 0.04 µM
CC(=O)O[C@@H]1[C@H](OC(C)=O)[C@@H](CO)O[C@H]1n1cc(/C(I)=C\I)c(=O)[nH]c1=O ; strain: NADL ; cells: MDBK ; value: >100 µM
Cc1ccc(N2C(=O)C(C)S/C2=N/N=C2\C(=O)Nc3ccc([N+](=O)[O-])cc32)cc1 ; cells: MDBK ; value: >41 µg/mL
O=C(Nc1nccs1)c1ccc2cccnc2n1 ; strain: NADL ; cells: WST-1 ; value: >0.78 µM
Fc1cccc(F)c1-c1nc2ccn(CCc3ccccc3)cc-2n1 ; strain: PE515 ; cells: MDBK ; value: 0.06 µg/mL
C=CCN1C(=O)C(C)S/C1=N/N=C1\C(=O)Nc2ccc([N+](=O)[O-])cc21 ; cells: MDBK ; value: >50 µg/mL
c1ccc(CCCn2ccc3nc(-c4ccccc4)nc-3c2)cc1 ; strain: PE515 ; cells: MDBK ; value: 0.059 µg/mL
CC(=O)O[C@@H]1[C@H](OC(C)=O)[C@@H](CO)O[C@H]1n1cc(/C(Cl)=C\I)c(=O)[nH]c1=O ; strain: NADL ; cells: MDBK ; value: >100 µM
CN[C@H](CC(C)C)C(=O)N[C@H]1C(=O)N[C@@H](CC(N)=O)C(=O)N[C@H]2C(=O)N[C@H]3C(=O)N[C@H](C(=O)N[C@H](C(=O)C(=O)CNOCc4ccc(Cc5ccccc5)cc4)c4cc(O)cc(O)c4-c4cc3ccc4O)[C@H](O[C@H]3C[C@](C)(N)[C@@H](O)[C@H](C)O3)c3ccc(cc3)Oc3cc2cc(c3O[C@@H]2O[C@H](CO)[C@@H](O)[C@H](O)[C@H]2O[C@H]2C[C@](C)(N[NH2+][O-])[C@@H](O)[C@H](C)O2)Oc2ccc(cc2Cl)C1O ; cells: MDBK ; value: 20 µM
O=C(Nc1nc2ccccc2s1)c1ccc2cccnc2n1 ; strain: NADL ; cells: WST-1 ; value: >0.65 µM
CC(=O)O[C@@H]1[C@H](OC(C)=O)[C@@H](CO)O[C@H]1n1cc(C#CI)c(=O)[nH]c1=O ; strain: NADL ; cells: MDBK ; value: >100 µM
CC1S/C(=N/N=C2\C(=O)Nc3ccc([N+](=O)[O-])cc32)N(c2ccc(Cl)cc2)C1=O ; cells: MDBK ; value: 48 µg/mL

For reference, 2 entries again:

smiles | strain | cells | value
CC1S/C(=N/N=C2\C(=O)Nc3ccc([N+](=O)[O-])cc32)N(c2ccc(Cl)cc2)C1=O | - | MDBK | 48 µg/mL
CN[C@H](CC(C)C)C(=O)N[C@H]1C(=O)N[C@@H](CC(N)=O)C(=O)N[C@H]2C(=O)N[C@H]3C(=O)N[C@H](C(=O)N[C@H](C(=O)C(=O)CNOCc4ccc(Cc5ccccc5)cc4)c4cc(O)cc(O)c4-c4cc3ccc4O)[C@H](O[C@H]3C[C@](C)(N)[C@@H](O)[C@H](C)O3)c3ccc(cc3)Oc3cc2cc(c3O[C@@H]2O[C@H](CO)[C@@H](O)[C@H](O)[C@H]2O[C@H]2C[C@](C)(N[NH2+][O-])[C@@H](O)[C@H](C)O2)Oc2ccc(cc2Cl)C1O | - | MDBK | 20 µM